Measured values from several laboratories, pooled; numbers as filed in NIAID ChemDB.

Common to all: cytotoxicity tests; cells: MT-4; read-out: CC50

Conditions beyond the fields shown may differ between rows.

compound,method,value
CC(NC(=S)NC(=O)CCCN1C(=O)c2ccccc2C1=O)C(=O)O,MTT,125 µM
CCOC(=O)c1cc2c3cc(OC)ccc3c3ccc(Cl)cc3n2c1C,,>200 µM
CC(C)(C)CCO[C@@H]1O[C@H](COS(=O)(=O)O)[C@@H](OS(=O)(=O)O)[C@H](O[C@@H]2O[C@H](COS(=O)(=O)O)[C@@H](OS(=O)(=O)O)[C@H](O[C@@H]3O[C@H](COS(=O)(=O)O)[C@@H](OS(=O)(=O)O)[C@H](O[C@@H]4O[C@H](COS(=O)(=O)O)[C@@H](OS(=O)(=O)O)[C@H](O[C@@H]5O[C@H](COS(=O)(=O)O)[C@@H](OS(=O)(=O)O)[C@H](OS(=O)(=O)O)[C@H]5OS(=O)(=O)O)[C@H]4OS(=O)(=O)O)[C@H]3OS(=O)(=O)O)[C@H]2OS(=O)(=O)O)[C@H]1OS(=O)(=O)O,,>1000 µg/mL
CC(=O)c1ccc(C)cc1N[C@H](C(N)=O)c1c(Cl)cccc1Cl,,420 µM
O=CC1OC(=O)c2cc(O)c(O)c(O)c2Oc2cc3c(c(O)c2O)-c2c(cc(O)c(O)c2O)C(=O)OC2C(COC3=O)OC(OC(=O)c3cc(O)c(O)c(O)c3)C(OC(=O)c3cc(O)c(O)c(O)c3Oc3cc4c(c(O)c3O)-c3c(ccc(O)c3O)C(=O)OCC(O)C(OC4=O)C1OC(=O)c1cc(O)c(O)c(O)c1)C2OC(=O)c1cc(O)c(O)c(O)c1,,50.8 µg/mL
COc1cccc2c1nc(-c1ccccc1F)n2Cc1c(F)cccc1Cl,,13.1 µg/mL
N#Cc1cc(Cl)cc(Oc2c(C(F)(F)F)ccn(CC(=O)Nc3ccc([N+](=O)[O-])cc3)c2=O)c1,MTT,>254 µM
O=C(OC1OC2COC(=O)c3cc(O)c(O)c(O)c3-c3c(cc(O)c(O)c3O)C(=O)OC2C(OC(=O)c2cc(O)c(O)c(O)c2)C1OC(=O)c1cc(O)c(O)c(O)c1)c1cc(O)c(O)c(Oc2c(C(=O)OC3OC4COC(=O)c5cc(O)c(O)c(O)c5-c5c(cc(O)c(O)c5O)C(=O)OC4C(OC(=O)c4cc(O)c(O)c(O)c4)C3OC(=O)c3cc(O)c(O)c(O)c3)cc(O)c(O)c2O)c1,,37.7 µg/mL
COc1cccc2c1nc(-c1ccccc1F)n2Cc1ccccc1C#N,,>25 µg/mL
N#Cc1cc(Cl)cc(Oc2c(C(F)(F)F)ccn(CC(=O)Nc3cn[nH]c3)c2=O)c1,MTT,46.1 µM
CSCCC(NS(=O)(=O)c1ccc(C)cc1)c1nnc(SCc2ccc(Cl)cc2)o1,,13 µg/mL
Cc1cn([C@H]2C[C@H](N=[N+]=[N-])[C@@H](CO)O2)c(=O)[nH]c1=O,MTT,>2 µM
O=CC(OC(=O)c1cc(O)c(O)c(O)c1Oc1cc2c(=O)oc3c(O)c(O)cc4c(=O)oc(c1O)c2c34)C(OC(=O)c1cc(O)c(O)c(O)c1)C1C(=O)Oc2cc(Oc3c(C(=O)O)cc(O)c(O)c3O)c(O)c(O)c2-c2c(cc(O)c(O)c2O)C(=O)OCC1O,,31.9 µg/mL
CC(C)CCC[C@@H](C)[C@H]1CC[C@H]2[C@@H]3CC[C@H]4C[C@@H](CCC=C(c5cc(Cl)c(O)c(C(=O)O)c5)c5cc(Cl)c(O)c(C(=O)O)c5)CC[C@]4(C)[C@H]3CC[C@]12C,,>125 µM
COc1cccc2c1nc(-c1ccccc1F)n2Cc1cccc(F)c1,,>19.1 µg/mL
CSCCC(c1nnc(SCc2ccc(F)cc2)o1)N(Cc1ccc(F)cc1)S(=O)(=O)c1ccc(C)cc1,,>125 µg/mL
Cc1ccc(S(=O)(=O)N2C(=O)CSC2c2ccccc2Cl)cc1,MTT,>125 µM
CC1CCC(C(C)C)/C(=N/NC(=S)Nc2cccc(Cl)c2)C1,,44.6 µg/mL
CCOC(=O)c1cc2c3cc(N)ccc3c3ccc(OC)cc3n2c1C,,>200 µM
Cc1ccc(S(=O)(=O)N2C(=O)CSC2c2ccccc2)cc1,MTT,>125 µM
CCOC(=O)c1cc(-c2cccc([N+](=O)[O-])c2)n(-c2cccc(OC)c2)c1C,,33 µM
Cc1ccc(S(=O)(=O)N2C(=O)CSC2c2ccc(Cl)cc2)cc1,MTT,>125 µM
Cc1ccc(S(=O)(=O)NC(C)c2nnc(SCc3ccc(F)cc3)o2)cc1,,70.8 µg/mL
CCCCCCOCCOCCO[C@@H]1O[C@H](COS(=O)(=O)O)[C@@H](OS(=O)(=O)O)[C@H](O[C@@H]2O[C@H](COS(=O)(=O)O)[C@@H](OS(=O)(=O)O)[C@H](O[C@@H]3O[C@H](COS(=O)(=O)O)[C@@H](OS(=O)(=O)O)[C@H](O[C@@H]4O[C@H](COS(=O)(=O)O)[C@@H](OS(=O)(=O)O)[C@H](O[C@@H]5O[C@H](COS(=O)(=O)O)[C@@H](OS(=O)(=O)O)[C@H](OS(=O)(=O)O)[C@H]5OS(=O)(=O)O)[C@H]4OS(=O)(=O)O)[C@H]3OS(=O)(=O)O)[C@H]2OS(=O)(=O)O)[C@H]1OS(=O)(=O)O,,>1000 µg/mL
CC(=O)c1ccccc1N[C@@H](C(N)=O)c1c(Cl)cccc1Cl,,120 µM
O=C(OC1C(OC(=O)c2cc(O)c(O)c(O)c2Oc2cc3c(c(O)c2O)-c2c(cc(O)c(O)c2O)C(=O)OCC2OC(OC(=O)c4cc(O)c(O)c(O)c4O)C(OC(=O)c4cc(O)c(O)c(O)c4)C(OC(=O)c4cc(O)c(O)c(O)c4)C2OC3=O)OC2COC(=O)c3ccc(O)c(O)c3-c3c(cc(O)c(O)c3O)C(=O)OC2C1OC(=O)c1cc(O)c(O)c(O)c1)c1cc(O)c(O)c(O)c1,,70.3 µg/mL
O=S(=O)(O)c1ccc(NS(=O)(=O)c2ccc(-c3ccc(S(=O)(=O)Nc4ccc(S(=O)(=O)O)c5cccc(S(=O)(=O)O)c45)cc3)cc2)c2c(S(=O)(=O)O)cccc12,,>500 µg/mL
CC=CCn1c(-c2ccccc2F)nc2c(OC)cccc21,,13.17 µg/mL
Cc1ccc(S(=O)(=O)N2C(=O)CSC2c2ccc(O)cc2)cc1,MTT,>125 µM
O=C(O)c1cc(O)c(O)c(O)c1,,4.3 µg/mL
CC1CCC(C(C)C)/C(=N/NC(=O)Nc2cccc(Cl)c2)C1,,>125 µg/mL
CC(NS(=O)(=O)c1ccc(Cl)cc1)c1nnc(SCc2ccc(F)cc2)o1,,>58.75 µg/mL
COC(=O)C1CCCN1C(=O)CCCN1C(=O)c2ccccc2C1=O,MTT,101.9 µM
CC(NS(=O)(=O)c1ccc(Cl)cc1)c1nnc(SCc2ccccc2)o1,,>65.63 µg/mL
CC(C)OC(=O)OCn1nc(Cn2ccc(C(F)(F)F)c(Oc3cc(Cl)cc(C#N)c3)c2=O)n(C)c1=O,MTT,>231 µM
CC(=O)c1ccc(C)cc1N[C@@H](C(N)=O)c1c(Cl)cccc1Cl,,270 µM
O=CC(OC(=O)c1cc(O)c(O)c(O)c1)C(OC(=O)c1cc(O)c(O)c(O)c1)C1OC(=O)c2cc(Oc3c(C(=O)OC4OC5COC(=O)c6cc(O)c(O)c(O)c6-c6c(cc(O)c(O)c6O)C(=O)OC5C(OC(=O)c5cc(O)c(O)c(O)c5)C4OC(=O)c4cc(O)c(O)c(O)c4)cc(O)c(O)c3O)c(O)c(O)c2-c2c(cc(O)c(O)c2O)C(=O)OCC1O,,30.2 µg/mL
Cc1ccc(S(=O)(=O)N2C(=O)CSC2c2ccccc2O)cc1,MTT,>125 µM
CCOC(=O)c1cc2c3cccc(OC)c3c3c(N)cccc3n2c1C,,>200 µM
CC(O)C(NC(=S)NC(=O)CCCN1C(=O)c2ccccc2C1=O)C(=O)O,MTT,28.54 µM
CCOCCOCCOCCO[C@@H]1O[C@H](COS(=O)(=O)O)[C@@H](OS(=O)(=O)O)[C@H](O[C@@H]2O[C@H](COS(=O)(=O)O)[C@@H](OS(=O)(=O)O)[C@H](O[C@@H]3O[C@H](COS(=O)(=O)O)[C@@H](OS(=O)(=O)O)[C@H](O[C@@H]4O[C@H](COS(=O)(=O)O)[C@@H](OS(=O)(=O)O)[C@H](O[C@@H]5O[C@H](COS(=O)(=O)O)[C@@H](OS(=O)(=O)O)[C@H](OS(=O)(=O)O)[C@H]5OS(=O)(=O)O)[C@H]4OS(=O)(=O)O)[C@H]3OS(=O)(=O)O)[C@H]2OS(=O)(=O)O)[C@H]1OS(=O)(=O)O,,>1000 µg/mL
O=C(OC[C@H]1O[C@@H](OC(=O)c2cc(O)c(O)c(O)c2)[C@H](OC(=O)c2cc(O)c(O)c(O)c2)[C@@H](OC(=O)c2cc(O)c(O)c(O)c2)[C@@H]1O)c1cc(O)c(O)c(O)c1,,33.9 µg/mL
NC(=O)[C@@H](Nc1ccccc1[N+](=O)[O-])c1c(Cl)cccc1Cl,,66 µM
COc1cccc2c1nc(-c1ccccc1F)n2CCC#N,,66 µg/mL
COC(=O)C(NC(=O)CCCN1C(=O)c2ccccc2C1=O)C(C)C,MTT,125 µM
CC1CCC(C(C)C)/C(=N/NC(=S)Nc2ccccc2)C1,,108.1 µg/mL
Cn1c(Cn2ccc(C(F)(F)F)c(Oc3cc(Cl)cc(C#N)c3)c2=O)nn(COP(=O)(O)O)c1=O,MTT,>234 µM
COc1cccc2c1nc(-c1ccccc1F)n2Cc1ccccc1C(F)(F)F,,>25 µg/mL
CSCCC(NS(=O)(=O)c1ccc(C)cc1)c1nnc(SCc2ccc(Br)cc2)o1,,11.75 µg/mL
CCCCCCCCO[C@@H]1O[C@H](COS(=O)(=O)O)[C@@H](OS(=O)(=O)O)[C@H](O[C@@H]2O[C@H](COS(=O)(=O)O)[C@@H](OS(=O)(=O)O)[C@H](O[C@@H]3O[C@H](COS(=O)(=O)O)[C@@H](OS(=O)(=O)O)[C@H](O[C@@H]4O[C@H](COS(=O)(=O)O)[C@@H](OS(=O)(=O)O)[C@H](O[C@@H]5O[C@H](COS(=O)(=O)O)[C@@H](OS(=O)(=O)O)[C@H](OS(=O)(=O)O)[C@H]5OS(=O)(=O)O)[C@H]4OS(=O)(=O)O)[C@H]3OS(=O)(=O)O)[C@H]2OS(=O)(=O)O)[C@H]1OS(=O)(=O)O,,>1000 µg/mL
Cc1ccc(S(=O)(=O)NC(Cc2ccccc2)c2nnc(SCc3ccccc3)o2)cc1,,11.67 µg/mL
O=c1oc2c(O)c(O)cc3c(=O)oc4c(O)c(O)cc1c4c23,,80 µg/mL

For reference, 7 entries again:

compound | method | value
CC(C)CCC[C@@H](C)[C@H]1CC[C@H]2[C@@H]3CC[C@H]4C[C@@H](CCC=C(c5cc(Cl)c(O)c(C(=O)O)c5)c5cc(Cl)c(O)c(C(=O)O)c5)CC[C@]4(C)[C@H]3CC[C@]12C |  | >125 µM
CCOC(=O)c1cc(-c2cccc([N+](=O)[O-])c2)n(-c2cccc(OC)c2)c1C |  | 33 µM
O=C(OC1C(OC(=O)c2cc(O)c(O)c(O)c2Oc2cc3c(c(O)c2O)-c2c(cc(O)c(O)c2O)C(=O)OCC2OC(OC(=O)c4cc(O)c(O)c(O)c4O)C(OC(=O)c4cc(O)c(O)c(O)c4)C(OC(=O)c4cc(O)c(O)c(O)c4)C2OC3=O)OC2COC(=O)c3ccc(O)c(O)c3-c3c(cc(O)c(O)c3O)C(=O)OC2C1OC(=O)c1cc(O)c(O)c(O)c1)c1cc(O)c(O)c(O)c1 |  | 70.3 µg/mL
Cc1ccc(S(=O)(=O)N2C(=O)CSC2c2ccccc2Cl)cc1 | MTT | >125 µM
N#Cc1cc(Cl)cc(Oc2c(C(F)(F)F)ccn(CC(=O)Nc3ccc([N+](=O)[O-])cc3)c2=O)c1 | MTT | >254 µM
Cn1c(Cn2ccc(C(F)(F)F)c(Oc3cc(Cl)cc(C#N)c3)c2=O)nn(COP(=O)(O)O)c1=O | MTT | >234 µM
CC(=O)c1ccc(C)cc1N[C@H](C(N)=O)c1c(Cl)cccc1Cl |  | 420 µM

CCn is the concentration with n% toxicity to the cells. An empty or dashed field is not shown.